A mixed list of measured activities; the numbers were collected in NIAID ChemDB.

Common to all: growth or infection tests; agent: Vaccinia virus; read-out: EC50

ECn is the concentration giving n% inhibition of infection, replication or growth. Lines come from different laboratories, so protocols vary.

{"smiles": "OC[C@H]1O[C@H](c2cncc(Br)c2)[C@@H](O)[C@@H]1O", "cell line": "E6SM", "result": "≥100 µg/mL"}
{"smiles": "Cc1cn([C@H]2O[C@H](CO)[C@@H](N=[N+]=[N-])[C@H]2F)c(=O)nc1N", "cell line": "PRK", "result": ">400 µg/mL"}
{"smiles": "CC=NC(=N)c1nc(-c2ccc(C)cc2)n(C/C=C/c2ccccc2)n1", "cell line": "E6SM", "result": ">4 µg/mL"}
{"smiles": "Nc1ncnc2c1ncn2[C@@H]1O[C@H](COP(=O)([O-])OP(=O)([O-])OC[C@@H]2OC(O)[C@H](O)[C@H](O)[C@H]2O)[C@@H](O)[C@H]1O", "cell line": "PRK", "result": "15 µg/mL"}
{"smiles": "CCOC(=O)CSc1nnc(-c2cn(-c3ccccc3)nc2-c2ccccc2)n1N", "cell line": "HEL", "result": ">80 µg/mL"}
{"smiles": "Nc1ncnc2c1ncn2[C@@H]1C=C(CO)[C@@H](O)[C@H]1O", "cell line": "E6SM", "result": "0.7 µg/mL"}
{"smiles": "C=C(N=CC)c1nc(-c2cccc(OC)c2)n(C2O[C@H](CO)[C@@H](O)[C@H](O)[C@H]2O)n1", "cell line": "E6SM", "result": "300 µg/mL"}
{"smiles": "N#Cc1cncc([C@H]2O[C@H](CO)[C@@H](O)[C@@H]2O)c1", "cell line": "E6SM", "result": "≥100 µg/mL"}
{"smiles": "Nc1ncnc2c1ncn2[C@@H]1O[C@H](COP(=O)(O)O[C@@H]2[C@H](O)[C@@H](COP(=O)(O)O[C@@H]3[C@H](O)[C@@H](COP(=O)(O)OP(=O)(O)OP(=O)(O)O)O[C@H]3n3cnc4c(N)ncnc43)O[C@H]2n2cnc3c(N)ncnc32)[C@@H](O)[C@H]1O", "cell line": "E6SM", "result": "70 µg/mL"}
{"smiles": "COC(=O)C(C)(C)NP(=O)(OC[C@H]1O[C@@H](n2cc(/C=C/Br)c(=O)[nH]c2=O)C[C@@H]1O)Oc1ccccc1", "cell line": "E6SM", "result": "32 µM"}
{"smiles": "CC(=O)Nn1c(-c2cn(-c3ccccc3)nc2-c2ccccc2)n[nH]c1=S", "cell line": "HEL", "result": "240 µg/mL"}
{"smiles": "Nc1ncnc2c1ncn2[C@@H]1O[C@H](C=O)C[C@H]1O", "cell line": "HEL", "result": "400 µg/mL"}
{"smiles": "CN(C)CCN1C(=O)c2cccc3cc(N)cc(c23)C1=O", "cell line": "VERO", "result": ">4 µg/mL"}
{"smiles": "Nc1ncnc2c1ncn2[C@@H]1O[C@H](COP(=O)(O)O[C@@H]2[C@H](O)[C@@H](COP(=O)(O)OP(=O)(O)OC[C@@H]3OC(O)[C@H](O)[C@H](O)[C@H]3O)O[C@H]2n2cnc3c(N)ncnc32)[C@@H](O)[C@H]1O", "cell line": "E6SM", "result": "150 µg/mL"}
{"smiles": "C=C(N=CC)c1nc(-c2ccc(C)cc2)n(C2O[C@H](CO)[C@@H](O)[C@H](O)[C@H]2O)n1", "cell line": "E6SM", "result": ">200 µg/mL"}
{"smiles": "Nn1c(-c2cn(-c3ccccc3)nc2-c2ccccc2)n[nH]c1=S", "cell line": "HEL", "result": ">80 µg/mL"}
{"smiles": "Nc1ccn([C@@H]2C[C@H](CO)[C@@H](O)[C@H]2O)c(=O)n1", "cell line": "PRK", "result": "15 µg/mL"}
{"smiles": "S=c1[nH]n2c(-c3cn(-c4ccccc4)nc3-c3ccccc3)nnc2s1", "cell line": "HEL", "result": ">80 µg/mL"}
{"smiles": "O=c1[nH]c(=O)n([C@H]2C[C@H](O)[C@@H](COP(=O)(O)O)O2)cc1CCc1ccccc1", "cell line": "PRK", "result": ">400 µg/mL"}
{"smiles": "COc1nc(=O)n([C@H]2C[C@H](O)[C@@H](CO)O2)cc1/C=C/Cl", "cell line": "PRK", "result": "150 µg/mL"}
{"smiles": "S=c1[nH]nc(-c2cn(-c3ccccc3)nc2-c2ccccc2)o1", "cell line": "HEL", "result": ">16 µg/mL"}
{"smiles": "CO[C@H](CO)[C@@H](O)CCn1cnc2c(N)ncnc21", "cell line": "E6SM", "result": ">400 µg/mL"}
{"smiles": "[N-]=[N+]=N[C@@H]1[C@@H](OP(=O)(O)OC[C@H]2O[C@@H](n3cnc4c(N)ncnc43)[C@H](OP(=O)(O)OCCOCn3cnc4c(=O)[nH]c(N)nc43)[C@H]2N=[N+]=[N-])[C@H](n2cnc3c(N)ncnc32)O[C@@H]1CO", "cell line": "PRK", "result": "7 µg/mL"}
{"smiles": "CO[C@@H]1[C@@H](OC(N)=O)[C@@H](O)[C@H](Oc2ccc3c(O)c(NC(=O)c4ccc(O)c(CC=C(C)C)c4)c(=O)oc3c2C)OC1(C)C", "cell line": "HeLa", "strain": "Lister", "result": "25 µg/mL"}
{"smiles": "O=c1[nH]c(=O)n([C@H]2C[C@H](O)[C@@H](CO)O2)cc1F", "cell line": "PRK", "result": "0.07 µg/mL"}
{"smiles": "C=C(N=CC)c1nc(-c2cccc(C)c2)n([C@@H]2O[C@H](CO)[C@@H](O)[C@H]2O)n1", "cell line": "E6SM", "result": "150 µg/mL"}
{"smiles": "Nc1ncnc2c1ncn2[C@H]1C[C@@H](O)[C@H](O)[C@@H]1O", "cell line": "E6SM", "result": "0.7 µg/mL"}
{"smiles": "Nc1nc(=O)n([C@H]2C[C@H](O)[C@@H](CO)O2)cc1/C=C/Cl", "cell line": "PRK", "result": ">200 µg/mL"}
{"smiles": "O=c1[nH]c(=O)n([C@H]2C[C@H](O)[C@@H](COP(=O)(O)O)O2)cc1I", "cell line": "E6SM", "result": "0.2 µg/mL"}
{"smiles": "O=c1[nH]c(=O)n([C@H]2C[C@H](O)[C@@H](CO)O2)cc1/C=C/Br", "cell line": "PRK", "result": "7 µg/mL"}
{"smiles": "OC[C@H]1O[C@@H](c2cncc(Br)c2)[C@@H](O)[C@H]1O", "cell line": "E6SM", "result": "≥100 µg/mL"}
{"smiles": "[N-]=[N+]=Nc1cccc(/C=C/c2cn([C@H]3C[C@H](O)[C@@H](COP(=O)(O)O)O3)c(=O)[nH]c2=O)c1", "cell line": "PRK", "result": "20 µg/mL"}
{"smiles": "Cc1cn(CC[C@H](O)CCO)c(=O)[nH]c1=O", "cell line": "E6SM", "result": ">400 µg/mL"}
{"smiles": "[N-]=[N+]=N[C@H]1[C@@H](F)[C@H](n2cnc3c(N)ncnc32)O[C@@H]1CO", "cell line": "PRK", "result": "300 µg/mL"}
{"smiles": "N#Cc1cncc([C@@H]2O[C@H](CO)[C@@H](O)[C@@H]2O)c1", "cell line": "E6SM", "result": "≥100 µg/mL"}
{"smiles": "CO[C@H](CO)[C@@H](O)CCn1ccc(N)nc1=O", "cell line": "E6SM", "result": ">400 µg/mL"}
{"smiles": "COC(=O)[C@H](C)NP(=O)(OC[C@H]1O[C@@H](n2cc(/C=C/Br)c(=O)[nH]c2=O)C[C@@H]1O)Oc1ccc(Cl)cc1", "cell line": "E6SM", "result": "0.128 µM"}
{"smiles": "NC(=O)c1cncc([C@H]2O[C@H](CO)[C@@H](O)[C@@H]2O)c1", "cell line": "E6SM", "result": "≥100 µg/mL"}
{"smiles": "Nc1ncnc2c1ncn2C[C@@H](CO)OCP(=O)(O)O", "cell line": "PRK", "result": "0.3 µg/mL"}
{"smiles": "OC[C@H]1O[C@H](c2cncc(Br)c2)[C@@H](O)[C@H]1O", "cell line": "E6SM", "result": "≥100 µg/mL"}
{"smiles": "CC1=Nn2c(nnc2-c2cn(-c3ccccc3)nc2-c2ccccc2)SC1", "cell line": "HEL", "result": ">16 µg/mL"}
{"smiles": "N#Cc1cncc([C@H]2O[C@H](CO)[C@H](O)[C@@H]2O)c1", "cell line": "E6SM", "result": "≥100 µg/mL"}
{"smiles": "CC=NC(=N)c1nc(-c2ccccc2)n(Cc2ccccc2)n1", "cell line": "E6SM", "result": ">4 µg/mL"}
{"smiles": "Nc1nccc2c1ncn2[C@@H]1C[C@H](CO)[C@@H](O)[C@H]1O", "cell line": "HEL", "result": "0.7 µg/mL"}
{"smiles": "CC=NC(=N)c1nc(-c2ccc(C)cc2)n(Cc2ccccc2)n1", "cell line": "E6SM", "result": ">4 µg/mL"}
{"smiles": "CCCCCCCC(=O)O[C@H]1[C@H](O)[C@H](n2ccc(N)nc2=O)O[C@@H]1CO", "cell line": "HeLa", "strain": "IHD", "result": "0.019 µg/mL"}